The results in this text go back to publication PMC4118376 (Sensors (Basel, Switzerland), 2014).

Positions count from the first letter of the chain named.

The target of the experiment is ricin (Ricinus communis (; implied …, UniProt P02879).

B1: sdAb H9-A1 (VHH)
VHH: EVQLQASGGGLVQPGGSLRLSCAASGSAVSIGFMAWYRQAPGKQRELVARISSSGLPDYADTVKGRFTISRDNTRKTVSLQMNSLNPDDTAVYYCNARLYDGSSAWGQGTQVTVSS
notes: source: E. coli Rosetta (DE3), periplasm, purified (IMAC, size exclusion chromatography)
For B1, the binding result is reported as “no binding”.

B2: sdAb H9-B11 (VHH)
VHH: DVQLQASGGGLVQVGGSLRLSCAASGSTFRIGYMGWYRQAPGKPRELVARISSGGTTDYLDFVKDRFTISRDNAKNTVYLQMSSLKPEDTAVYYCNVVNYRANEYWGQGTQVTVSS
notes: source: E. coli, periplasm, purified (IMAC, size exclusion chromatography)
As to B2, the binding result is “no binding”.

B3: sdAb H9-D7 (VHH)
VHH: B2 VHH with G35S, Y37H, P44S, F62S, A74T, S83N, K86E, N99D, T113A
notes: as for B1
Turning to B3, the binding result was “no binding”.

B4: sdAb F1 (VHH)
VHH: DVQLQASGGGLVQAGGSLRLTCAASLHTFGSYAMGWFRQAPGKEREFVAAISWSGGDTYSDSVKGRFTISRDNAKNTVYLQMNSLEPEDTAVYSCAAVEARYYISTDAKDYGYWGQGTQVTVSS
notes: as for B1
As for B4, the binding result is reported as “no binding”.

B5: sdAb E2 (VHH)
VHH: B4 VHH with D1E, L26G, H27R, S60A, E86A, E99G, T106K
notes: as for B1
With B5, the binding result is “no binding”.

B6: sdAb H9-H11 (VHH)
VHH: DVQLQASGGGLVQPGGSLRLSCAASESAVRIGFMGWHRQAPGNQRERVAQISSTGLPTYADAVKGRFTISRDNTKNTVYLQMNSLNADDTAVYFCNARLYDGTSVWGQGTQVTVSS
notes: as for B2
B6: the binding result is on record as “no binding”.

B7: sdAb S222-A2 (VHH)
VHH: B6 VHH with Q13E, E26G, R30S, N43K, L56I, T58N, A62T, V78M, V105A
notes: as for B2
Take B7: the binding result is “no binding”.

B8: sdAb A10 (VHH)
VHH: EVQLQASGGGLVRAGGTLRLTCDATTPTFGSYAMGWFRQAPGKEREFVSAISWSGGDTYADSVKGRFTISRDNTRNRVYLQMNDLEPDDTAIYTCARTTARYYISKDAKDYDYWGQGTQVTVSS
notes: as for B1
Take B8: the binding result was “no binding”.

B9: sdAb B1 (VHH)
VHH: EVQLQASGGGLVQAGGSLRLTCAVSGPTFGSYALGWFRQAPGKEREFVAAVSWSGGDTYADTAKGRFIISRDNAKNTVYLQMNNLEPEDTAVYSCARMQDRYYISKDAKDYGYWGQGTQVIVSS
notes: as for B1
With B9, the binding result was “no binding”.

B10: sdAb H9 (VHH)
VHH: B9 VHH with T62S, A63V, G117E, I121T
notes: as for B1
For B10, the binding result is reported as “no binding”.

B11: sdAb H12 (VHH)
VHH: EVQLQASGGGLVLTGGSLRLSCAASGRNFSNYAMAWFRQAPGKEREFVGTISWYTNTNYANSVKGRFSISRDNAKNTVYLQMSSLKPEDTAVYYCAAAPAMYYNPYTRESEYGYWGQGTQVTVSS
notes: as for B1
For the molecule B11, the binding result was “no binding”.

B12: sdAb E9 (VHH)
VHH: B11 VHH with L13Q, T14A, N28D, N31D, N61D, M101R, T107K
notes: as for B1
In the case of B12, the binding result is reported as “no binding”.

B13: sdAb D9 (VHH)
VHH: EVQLQASGGGLAQAGDSLRLSCAASIRTFGSYAMGWFRQAPGKEREFVAAISWSGGDTYADSAKGRFTISRDNAKNMMYLQMNSLAPEDTAVYFCAIVEAKYYISKDARDYGYWGQGTQVFVSS
notes: as for B1
With B13, the binding result is “no binding”.
